Test results taken from US20080318326A1 (priority 2005, published 2008).

What was measured:
[1] = test system: Na+ ion channels (voltage gated sodium ion channels); assay: Sodium ion channel currents in filter supported bilayer lipid membrane; assay type: biochemical; conditions: channels with veratridine, FIG. 7
[2] = test system: sodium ion channel proteins; assay: Sodium ion channel currents in bilayer on preloaded nylon support matrix; assay type: biochemical; conditions: nylon support matrix preloaded with sodium channel proteoliposomes; FIGS. 11a-11d
sodium ion channels = assay: Sodium ion channel currents in bilayer reformed on preloaded support matrix stored 80 days; conditions: PTFE matrix preloaded 80 days earlier; before application approximately 5 pA

NC1=N[C@H](O)[C@H]2[C@H]3O[C@]4(O)O[C@@H]([C@@H](O)[C@@]2(N1)[C@@H]4O)[C@]3(O)CO
effect on sodium channel current ([1]; 15 minutes after application of 200 μmolar): decreased to the level measured for the blank membrane | effect on sodium channel current ([1]; shortly after application of 200 μmolar): reduction in current | current measured after application [2]: less current observed | individual current transitions following application (sodium ion channels): approximately 2 pA
